The entries are a selection whose mix differs from that of the whole data set. Calls of active or inactive are those of the source. The call rests on the fitted dose curve; in most records, active means well fitted inhibition curve with a large enough effect in the main read-out, with a control signal flat (not every such curve was filed as active); inconclusive means small, poorly fitted or top-dose-only effect, or effect the other way, or a change in a side signal; inactive means no such curve, though single readings can be large or run the other way.

Chains of the proteins cited; added tags and fusions are not shown.
UniProt Q99816, whole entry: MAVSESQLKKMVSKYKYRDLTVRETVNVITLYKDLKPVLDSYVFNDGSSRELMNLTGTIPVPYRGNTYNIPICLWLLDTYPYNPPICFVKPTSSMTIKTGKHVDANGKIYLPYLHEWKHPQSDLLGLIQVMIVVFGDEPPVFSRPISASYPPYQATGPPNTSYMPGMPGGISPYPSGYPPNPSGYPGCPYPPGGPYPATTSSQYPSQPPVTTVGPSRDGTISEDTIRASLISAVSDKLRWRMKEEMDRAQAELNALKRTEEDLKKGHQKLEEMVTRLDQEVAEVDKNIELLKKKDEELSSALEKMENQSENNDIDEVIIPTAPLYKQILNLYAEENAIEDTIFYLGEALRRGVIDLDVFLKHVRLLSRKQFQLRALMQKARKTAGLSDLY

Here are results for 26 compounds from PubChem BioAssay AID493005 (National Center for Advancing Translational Sciences (NCATS), 2010).

The target of this test is Tumor susceptibility gene 101 protein (Homo sapiens) (UniProt Q99816). In words: qHTS Assay for Iinhibitors of HIV-1 Budding by Blocking the Interaction of PTAP/TSG101. Further: % of control where 0% means no effect. The following applies: Fluorescence polarization, FITC-PTAP peptide / Tsg101 binding; at 115 µM (top of the series). An excerpt:
NIH Molecular Libraries Probe Production Network [MLPCN] NIH Chemical Genomics Center [NCGC] MLPCN Grant: 1 R03 MH087464-01A1 PI Name: Dr. Eric Freed, NCI NCGC Assay Overview: Stages of the HIV-1 replication cycle, specifically virus assembly and release, provide underexploited targets for the development of novel antiviral inhibitors. The late stages of HIV-1 replication are mediated by the Gag precursor protein, Pr55Gag. Expression of Pr55Gag is both necessary and sufficient for the production of virus-like particles from Gag-expressing cells. The Gag protein hijacks key host proteins involved in endocytic machinery of the host cell to promote endosomal processing and viral budding. The budding process requires a direct interaction between a […] (PTAP) motif in the p6 domain of Gag and the cellular endosomal sorting protein known as Tsg101. In this way, the Gag PTAP motif promotes the host cells to recruit viral particles to the plasma membrane where the new viral particles are released, effectively turning the host cells into viral factories. A fluorescence anisotropy assay has been developed to quantitatively measure the PTAP-Tsg101 interaction which can be used to screen for inhibitors of this interaction.
NCGC Assay Protocol Summary: Two uL of the Tsg101 binding domain in buffer (10 mM HEPES pH 7.5; 0.15 M NaCl, 0.01% Tween 20; 3 mM EDTA;0.1 mM TCEP) was dispensed into Greiner black MB 1536-well plates (final concentration 10 uM). Then, 23 nL of compounds or DMSO were delivered to each well using a pin tool. Finally, 2 uL of a FITC-labeled peptide containing the PTAP motif (1) in the same buffer was dispensed (50 nM final concentration) and the binding was allowed to proceed for 20 min. at r.t. Fluorescent polarization was determined using FITC excitation and polarized emission filters on a Perkin Elmer Viewlux. Keywords: Tsg101, PTAP, Gag, HIV, fluorescent polarization, MLSMR, MLPCN, NIH Roadmap, qHTS, NCGC
(In general: In qHTS, concentration-response curves come from the screen itself.)
On to `CCN(CC)CCCOC(=O)C(O)(c1ccccc1)c1ccccc1`, for which the activity change, negative = inhibition was inactive: -1.61%.
Next, `COc1ccccc1OP(C)(=O)Nc1cc(Cl)ccc1C` (stereo unspecified): inactive: -5.68%.
As to `COc1ccc(OP(C)(=O)Nc2cccc(F)c2)cc1` (stereo unspecified), the activity change, negative = inhibition is inactive: -1.68%.
For `Cc1cc(C)cc(OP(C)(N)=O)c1` (stereo unspecified) the value was inactive: -1.26%.
With `CCOC(=O)c1ccc(NP(C)(=O)Oc2ccccc2)cc1` (stereo unspecified), the activity change, negative = inhibition was inactive: -2.05%.
For `COc1ccccc1OP(C)(=O)Nc1ccc(C)cc1` (stereo unspecified), the activity change, negative = inhibition is inactive: -2.26%.
Next, `Cc1ccc(NP(C)(=O)Oc2ccccc2)c(C)c1` (stereo unspecified): inactive: -1.28%.
Next, `Cc1cccc(C)c1OP(C)(N)=O` (stereo unspecified): inactive: -3.81%; `O=[N+]([O-])c1ccc2c(c1)C=Nc1ccccc1O2`: inactive: -5.41%; `O=[N+]([O-])c1cc([N+](=O)[O-])c(Nc2cccnc2)c([N+](=O)[O-])c1`: inactive: -6.07%.
Take `COc1ccccc1OP(C)(=O)Nc1ccccc1` (stereo unspecified): the activity change, negative = inhibition was inactive: -2.35%.
Take `CP(=O)(Nc1ccccc1Br)Oc1ccccc1` (stereo unspecified): the activity change, negative = inhibition was inactive: -3.97%.
For `CP(=S)(Nn1cnnc1)Oc1ccccc1` (stereo unspecified) the value was inactive: -1.03%; for `CP(=O)(Nc1ccccn1)Oc1ccc(Cl)cc1` (stereo unspecified), inactive: -14.1%.
For `CCOP(C)(=S)SCC(=O)NC(C)C(=O)O` (stereo unspecified) the value was inactive: -3.8%.
For `CCOC(=O)c1ccc(NP(C)(=O)Oc2ccc(OC)cc2)cc1` (stereo unspecified) the value was inactive: -2.12%.
On to `O=[N+]([O-])c1cc([N+](=O)[O-])c(O)c([N+](=O)[O-])c1.c1ccc(Oc2ccncc2)cc1`, for which the activity change, negative = inhibition was inactive: -6.54%.
Next, `CCc1ccc(OP(C)(=O)N2CCN(c3ccc([N+](=O)[O-])cc3)CC2)cc1` (stereo unspecified): inactive: -2.06%; `CP(=O)(NC(=O)Nc1ccccc1)Oc1ccccc1` (stereo unspecified): inactive: 0.71%.
Next, `Cc1cc(C)cc(OP(C)(=O)Nc2ccc(SC(F)(F)F)cc2)c1` (stereo unspecified): inactive: -2.23%; `Cc1cccc(C)c1OP(C)(=O)Nc1ccc(SC(F)(F)F)cc1` (stereo unspecified): inactive: -5.82%.
For `CP(=O)(Nc1ccc(SC(F)(F)F)cc1)Oc1ccc(Cl)cc1` (stereo unspecified) the value was inactive: -10.5%; for `CP(=O)(Oc1ccccc1)OC(c1ccccc1)C(F)(F)F` (stereo unspecified), inactive: 0.947%.
Take `Cc1nc2ccc3ccccc3c2s1.O=[N+]([O-])c1cc([N+](=O)[O-])c(O)c([N+](=O)[O-])c1`: the activity change, negative = inhibition was inactive: -14.9%.
Next, `O=[N+]([O-])c1cc([N+](=O)[O-])c(-c2cnn(-c3ccccc3)c2)c([N+](=O)[O-])c1`: inactive: 0.226%; `O=[N+]([O-])c1cc([N+](=O)[O-])c(-n2nnc3ccccc32)c([N+](=O)[O-])c1`: inactive: -2.97%.
